Results of unrelated studies side by side (data: NIAID ChemDB).

Shared fields: cytotoxicity tests; cell line: Huh7.5.1; read by: MTT; endpoint: CC50

CCn is the concentration with n% toxicity to the cells. Rows are shuffled and stem from different studies.

smiles	result
Cc1ccccc1C(=O)Nc1cccc(Cn2nc(C(N)=O)c3ccccc32)c1	>10 µM
NC(=O)c1ncn([C@@H]2O[C@H](CO)[C@@H](O)[C@H]2O)n1	47.4 µg/mL
NC(=O)c1ncn([C@@H]2O[C@H](CO)[C@@H](O)[C@H]2O)n1	>10 µM
CC1=C(/C=C/C(C)=C/C=C/C(C)=C/C(=O)O)C(C)(C)CCC1	>30 µM
NC(=O)c1nn(Cc2ccc(NC(=O)C3CC3)cc2)c2ccccc12	>10 µM
CC1(C)CCC(C)(C)C2C=C(NC(=O)c3ccc(C(=O)O)cc3)C=CC21	>30 µM
CC1(C)CC[C@]2(C(=O)O)CC[C@]3(C)C(=CC[C@@H]4[C@@]5(C)CC[C@H](O)C(C)(C)[C@@H]5CC[C@]43C)[C@@H]2C1	89.2 µg/mL
Cc1cc2c(cc1-c1cc(/C=C/C(=O)O)ccc1O)C(C)(C)CCC2(C)C	>30 µM
NC(=O)c1nn(Cc2cccc(NC(=O)c3ccc(F)cc3)c2)c2ccccc12	20.67 µM
CN1c2cc3c(cc2N=C(c2ccc(C(=O)O)cc2)c2ccccc21)C(C)(C)CCC3(C)C	20 µM
NC(=O)c1nn(Cc2cccc(NC(=O)c3cccc(F)c3)c2)c2ccccc12	>10 µM
COC(=O)N[C@H](C(=O)N1CCC[C@H]1c1ncc(-c2ccc(-c3ccc(-c4cnc([C@@H]5CCCN5C(=O)[C@@H](NC(=O)OC)C(C)C)[nH]4)cc3)cc2)[nH]1)C(C)C	>1 µM
COc1ccc(C(=O)Nc2cccc(Cn3nc(C(N)=O)c4ccccc43)c2)cc1	>10 µM
CC(C)(C)Oc1cccc2nc(N)nc(N)c12	>10 µM
CCCCCCCOc1cc2c(cc1/C(C)=C/c1ccc(C(=O)O)cc1)C(C)(C)CCS2(=O)=O	>30 µM